Assay results reported in patent US8722616B2, “Anti-HIV peptides and methods of use thereof” (priority 2009, dated 2014).
Like-named read-outs stand apart in the source and are kept apart here. No end group written: not given here.

System: HIV-1IIIB
Conditions: TI=TC50/EC50
Protocol: (§1) Anti-HIV cytopathic effect inhibition assays were conducted as described (Buckheit et al. (1995) Antimicrob. Agents Chemother., 39:2718-2727). In brief, serially diluted peptides were added to a 96-well round bottom microtiter plate in triplicate. CEM-SS cells at a concentration of 2.5×10^3 cells per well and HIV-1IIIB at the appropriate pre-determined titer were sequentially added to the microtiter plate. The cultures were incubated at 5% CO2/37° C. for six days. Following the incubation, the microtiter plates were stained with XTT tetrazolium dye to evaluate the efficacy and toxicity of the test compound(s).
as §1, with “Cytopathic Effect (CPE) Inhibition Assay: The CPE assay was performed” for “Anti-HIV cytopathic effect inhibition assays were conducted”, “as previously” for “as”, “Briefly,” for “In brief,”, “compound was” for “peptides were”

Row | Molecule | TI (Table 1) | other results
1 | Cc1cn([C@H]2C[C@H](N=[N+]=[N-])[C@@H](CO)O2)c(=O)[nH]c1=O [AZT, reference compound] | >55.6 | TI (Table 2): >71.4; TI (Table 3): >71.4
2 | GLRSRIWLWVLLMIWQESNRFKRM [DRS S9r3] |  | therapeutic index (TI): ~26
3 | H-GFKDLLKGAAKALVKTVLF-NH2 [Ascaphin-8, reference compound] | 2.4 | 
4 | HVDKKVADKVLLLKQLRIMRLLTRL [Spinigerin, reference compound] | >10.9 | 
5 | IWLTALKFLGKHAAKHLAKQQLSKL [Lycotoxin I, reference compound] | <0.07 | 
6 | LLGDLLRKSKEKIGKEFKRIVQRIKDFLRNLVPRTES [LL-37, reference compound] |  | therapeutic index (TI): approximately 11
7 | SKEKIGKEFKRIVQRIKDFLR [SK-21] |  | TI (Table 4): 2.08
8 | SWKSMAKKLKEYMEKLKQRA [Latarcin 3a, reference compound] | >1.23 | 
9 | VFQFLGRIIHHVGNFVHGFSHVF [Clavanin B, reference compound] | >5.18 | 
